Consider two substances from patent US20070021434A1, “NON-NUCLEOSIDE ANTI-HEPACIVIRUS AGENTS AND USES THEREOF” (Migenix Inc., priority 2005, published 2007).

Broadly, the IC50 is the concentration needed to halve the response being measured.

The target in this experiment is HCV RdRp (NS5B) (UniProt P26663). Briefly: RdRp assay with ELISA detection (Table 1). The following applies: read-out: RdRp IC50. The class given is biochemical, hepatitis C virus. (In general: ELISA stands for enzyme-linked immunosorbent assay.)

A value given as a limit tells only on which side of the number the result lay.

In the case of “(S)-{4-[(5-AMINO-1-P-TOLYLCARBAMOYL-PENTYLAMINO)-METHYL]-PHENYL}-CARBAMIC ACID”, the IC50 was more than 50 µM.
To “(R)-4-[2-(S)-(2-AMINO-ACETYLAMINO)-ACETOXY]-2-P-TOLYLCARBAMOYL-PYRROLIDINE-1-CARBOXYLIC ACID 9H-FLUOREN-9-YLMETHYL ESTER” belongs more than 50 µM.
